Compound potency records, mixed from different reports. Data source: NIAID ChemDB in PubChem.

All rows: growth or infection tests; agent: Mycobacterium tuberculosis

Percent inhibition refers to the dose given; in toxicity tests it is the harm to the cells. Blank or dashed fields: not listed here. MIC bound comes from a single tested concentration. ECn is the concentration giving n% inhibition of infection, replication or growth. Lines come from different laboratories, so protocols vary. A number after MIC or MFC names an inhibition level or a share of isolates.

compound,method,conditions,cells,changes,strain,read-out,tested at,value
CC(=O)Nc1ccc(/C=N/NC(=S)NCCCN2CCN(CCCNC(=S)N/N=C/c3ccc(NC(C)=O)cc3)CC2)cc1,BACTEC,,,,H37Rv,MIC,,≥12.5 µg/mL
C/C(=N\NC(=O)c1ccncc1)c1ccc(F)cc1,,,,,H37Rv (thiacetazone-resistant),MIC,,>32 µg/mL
COc1cc2c3cc1OCc1c(O)c(OC)cc4c1[C@H](Cc1ccc(cc1)Oc1cc(ccc1O)C[C@H]3N(C)CC2)N(C)CC4,BACTEC,,,,H37Rv,MIC,,≥12.8 µg/mL
CC1(C)[C@H]2CC[C@@H](CNCCNCCCN3CCCC3=O)[C@@H]1C2,,,,,,MIC,,50 µM
O=C(N/N=C/c1ccccc1F)c1ccncc1,,,,,Ethionamide-resistant,MIC,,>1.6 µg/mL
COc1cc2c(cc1OC)C1c3cc(OC)c(OC)cc3CC(=O)N1CC2,BACTEC,,,,H37Rv,MIC bound,,>12.5 µg/mL
CC(NNC(=O)c1ccncc1)c1cccc(C(F)(F)F)c1,,,,,Ethionamide-resistant,MIC,,>50 µg/mL
O=C1CCCN1CCCNCCNCC(c1ccccc1)c1ccccc1,,,,,,MIC,,25 µM
Fc1ccccc1CCNCCNCCCc1ccccc1,,,,,,MIC,,25 µM
COc1cccc(CSc2ccccn2)c1,,,,,H37Ra,MIC,,>12.8 µg/mL
c1ccc(C(CCNCCNC2CCCCCCC2)c2ccccc2)cc1,,,,,,MIC,,6.25 µM
COCCCNC(=O)c1nnn2c1nc(N)c1cc(Cl)ccc12,BACTEC,,,,H37Rv,inhibition,12.5 µg/mL,0%
O=C(N/N=C/c1cccc(F)c1)c1ccncc1,,,,,H37Rv (rifampin-resistant),MIC,,≤2 µg/mL
Cc1ccc(S(=O)(=O)N2CC(O)C(O)C2Cn2cnc3c(N)ncnc32)cc1,resazurin,,,,H37Rv,inhibition,6.25 µg/mL,5%
C=CCNCCNCCCCCCCCCCC,,,,,,MIC,,50 µM
C=C(NC(=O)c1csc(-c2nc3c(cc2O)-c2nc(cs2)C(=O)N[C@@H]([C@@H](C)O)C(=O)N/C(=C(\C)OC)c2nc(cs2)C(=O)N[C@@H]2c4nc(cs4)C(=O)N[C@@H](COC(=O)c4c5c6c(cccc6n4O)COC(=O)[C@@H](O[C@H]4C[C@](C)(O)[C@H](N(C)C)[C@H](C)O4)[C@H]2OC5)c2nc-3cs2)n1)C(N)=O,broth dilution,,,,Clinical isolate 13923,MIC,,≤25 µM
CC[C@H]1OC(=O)[C@H](C)[C@@H](O[C@H]2C[C@@](C)(OC)[C@@H](O)[C@H](C)O2)[C@H](C)[C@@H](O[C@@H]2O[C@H](C)C[C@H](N(C)C)[C@H]2O)[C@](C)(OC)C[C@@H](C)C(=O)[C@H](C)[C@@H](O)[C@]1(C)O,,,,,3897,MIC,,>4 µg/mL
CC1CCCC(NCCNCC(c2ccccc2)c2ccccc2)C1C,,,,,,MIC,,18.8 µM
CCOc1ccc(NC(=O)C(=O)CC(=O)c2c[n+](=O)c3cc(C)c(C)cc3n2[O-])cc1,BACTEC,,,,H37Rv,MIC,,≥12.5 µg/mL
COc1ccc(CCNCCNCc2ccc(OC)c(OC)c2)cc1,,,,,,MIC,,25 µM
COC(=O)CCC(NC(=S)N/N=C(\C)c1cnccn1)C(=O)OC,BACTEC,,,,H37Rv,MIC bound,,>12.5 µg/mL
CC(CNC[C@@H]1CC[C@H]2C[C@@H]1C2(C)C)NC[C@@H]1CC[C@H]2C[C@@H]1C2(C)C,,,,,,MIC,,6.25 µM
O=c1nc(SCc2cccc(Br)c2)c2[nH]cnc2[nH]1,,,,,H37Ra,MIC,,>12.8 µg/mL
O=C(NN1C(=O)CSC1c1ccco1)c1ccncc1,BACTEC,,,,,inhibition,0.5 µM,0%
CO[C@H]1/C=C/O[C@@]2(C)Oc3c(C)c(O)c4c(=O)c(c5oc6cc(N7CCN(C(C)C)CC7)cc(=O)c6nc5c4c3=C2O)NC(=O)/C(C)=C\C=C\[C@H](C)[C@H](O)[C@@H](C)[C@@H](O)[C@@H](C)[C@H](OC(C)=O)[C@@H]1C,,,,,29 (rifampin-resistant),MIC,,0.05 µg/mL
OCCCCCNCCNCC12CC3CC(CC(C3)C1)C2,,,,,,MIC,,50 µM
COC(=O)C1C(O)C(C)C(O)C(C)(O)C=C(C)C2=C3C(=C(C)C(=O)c4c(O)c(c(C)c(OC(C)=O)c43)NC(=O)/C(C)=C/C=C\C(C)C3OC(C)(C)OC1C3C)OCO2,BACTEC,,,,H37Rv,inhibition,12.5 µg/mL,42%
Clc1nc(Sc2ccccc2Cl)c2[nH]cnc2n1,,,,,H37Rv,MIC90,,>6.25 µg/mL
CC[C@H]1OC(=O)[C@H](C)[C@@H](O[C@H]2C[C@@](C)(OC)[C@@H](O)[C@H](C)O2)[C@H](C)[C@@H](O[C@@H]2O[C@H](C)C[C@H](N(C)C)[C@H]2O)[C@](C)(OC)C[C@@H](C)C(=O)[C@H](C)[C@@H](O)[C@]1(C)O,,,,,ATCC 35830,MBC,,>8 µg/mL
O=C(NNCc1ccc(F)cc1)c1ccncc1,colony count,inside macrophages,Macrophages,,Erdman,EC50,,<0.014 µg/mL
NCC[C@H](O)C(=O)N[C@@H]1C[C@H](N)[C@@H](O[C@H]2O[C@H](CN)[C@@H](O)[C@H](O)[C@H]2O)[C@H](O)[C@H]1O[C@H]1O[C@H](CO)[C@@H](O)[C@H](N)[C@H]1O,,,,,7R,MIC,,2.5 µg/mL
COc1ccc(Sc2ncnc3nc[nH]c23)c(OC)c1,,,,,H37Ra,MIC,,>12.8 µg/mL
O=C1CN(C2CCCCC2)CC(=O)N2CCCCN12,BACTEC,,,,H37Rv,inhibition,12.5 µg/mL,-6%
CN[C@@H]1[C@H](O[C@H]2[C@H](O[C@H]3[C@H](O)[C@@H](O)[C@H](N=C(N)N)[C@@H](O)[C@@H]3N=C(N)N)O[C@@H](C)[C@]2(O)C=O)O[C@@H](CO)[C@H](O)[C@H]1O,,,,,9135,MIC,,≥2 µg/mL
CC1COc2c(N3CCN(C)CC3)c(F)cc3c(=O)c(C(=O)O)cn1c23,,,,,MDR,MIC90,,8 µg/mL
Fc1cccc(CCNCCNC23CC4CC(CC(C4)C2)C3)c1,,,,,,MIC,,50 µM
NNC(=O)c1ccncc1,broth dilution,,,,Clinical isolate 30425,MIC,,≤1 µM
CC(=O)c1cccc(NC(=O)C(=O)NNc2n[nH]c(=S)n2N)c1,BACTEC,,,,H37Rv,inhibition,12.5 µg/mL,91%
Clc1ccc(CCNCCNCCc2ccccc2)c(Cl)c1,,,,,,MIC,,50 µM
CO[C@H]1/C=C/O[C@@]2(C)Oc3c(C)c(O)c4c(O)c(c5c(c4c3C2=O)NC2(CCN(CC(C)C)CC2)N=5)=NC(=O)/C(C)=C\C=C\[C@H](C)[C@H](O)[C@@H](C)[C@@H](O)[C@@H](C)[C@H](OC(C)=O)[C@@H]1C,,,,,Isolate 900240 drug-susceptible,MIC,,0.125 µg/mL
COc1cccc(N2CCN(CC(O)COc3cc4c(c5c3CCCC5)CCCC4)CC2)c1,resazurin,,,,H37Rv,inhibition,6.25 µg/mL,35%
CCCCSc1nc(Cl)nc2nc[nH]c12,,,,,H37Rv,MIC90,,>6.25 µg/mL
CO/C(C)=C1/NC(=O)[C@H]([C@@H](C)O)NC(=O)c2csc(n2)-c2cc(O)c(-c3nc(C(=O)NCCCN4CCOCC4)cs3)nc2-c2csc(n2)[C@@H]2COC(=O)c3c4c5c(cccc5n3O)COC(=O)[C@@H](O[C@H]3C[C@](C)(O)[C@H](N(C)C)[C@H](C)O3)[C@@H](OC4)[C@H](NC(=O)c3csc1n3)c1nc(cs1)C(=O)N2,broth dilution,,,Rifampicin- and isoniazid-resistant,Clinical isolate 8600,MIC,,≤2.5 µM
Cc1ccc(CNCCNCc2ccccc2F)cc1,,,,,,MIC,,50 µM
CO[C@H]1/C=C/O[C@@]2(C)Oc3c(C)c(O)c4c(O)c(c(/C=N/N5CCN(C)CC5)c(O)c4c3C2=O)NC(=O)/C(C)=C\C=C\[C@H](C)[C@H](O)[C@@H](C)[C@@H](O)[C@@H](C)[C@H](OC(C)=O)[C@@H]1C,broth dilution,,,Multidrug-resistant,Clinical isolate 565,MIC,,>10 µM
Cc1ccc(C)c(Sc2ncnc3nc[nH]c23)c1,,,,,H37Ra,MIC,,>12.8 µg/mL
NC1CCN(c2c(F)cc3c(=O)c(C(=O)O)cn(C4CC4)c3c2Cl)C1,,,,,ATCC 35827,MIC,,0.125 µg/mL
NC(=S)N/N=C1/C(=O)N(c2ccc(Cl)cc2)C(=O)C1C(=O)Nc1ccc(Cl)cc1,BACTEC,,,,H37Rv,MIC bound,,>12.8 µg/mL
COc1ccc(Sc2ncnc3nc[nH]c23)cc1,,,,,H37Rv,inhibition,6.25 µg/mL,0%
CC1CN(c2cc3c(cc2F)c(=O)c(C(=O)O)cn3-c2ccc(F)cc2F)CCN1,,,,,ATCC 35820,MBC,,1 µg/mL
CC(NCCNCC1(O)CCCCC1)c1cccc2ccccc12,,,,,,MIC,,50 µM
CC(C)CC(C)NCCNCc1ccccc1F,,,,,,MIC,,50 µM
CCCCC(Nc1cc(NC(=O)OCC)nc(N)c1[N+](=O)[O-])C(C)=O,,,,,H37Rv,EC50,,<12.5 µg/mL
COc1ccc(CNCCNCCCCc2ccccc2)c(OC)c1,,,,,,MIC,,50 µM
CCOC(=O)Nc1cc(NC/C(CCc2ccccc2)=N\O)c([N+](=O)[O-])c(N)n1,,,,,H37Rv,EC50,,>12.5 µg/mL
CO/C(C)=C1/NC(=O)[C@H]([C@@H](C)O)NC(=O)c2csc(n2)-c2cc(O)c(-c3nc(C(=O)NC(C)c4nc(-c5ccccn5)ns4)cs3)nc2-c2csc(n2)[C@@H]2COC(=O)c3c4c5c(cccc5n3O)COC(=O)[C@@H](O[C@H]3C[C@](C)(O)[C@H](N(C)C)[C@H](C)O3)[C@@H](OC4)[C@H](NC(=O)c3csc1n3)c1nc(cs1)C(=O)N2,broth dilution,,,,Clinical Isolate 913,MIC,,≤10 µM
CCCCCCCCCCCNCCNCC1(O)CCCCC1,,,,,,MIC,,50 µM
Cc1cc(N=Nc2c(O)c3ccccc3[nH]c2=O)ccc1N=Nc1ccc(C(=O)N(C)C)cc1,BACTEC,,,,H37Rv,MIC,,≥12.5 µg/mL
CC(NNC(=O)c1ccncc1)c1ccc(Cl)c(Cl)c1,,,,,H37Rv (ethambutol-resistant),MIC,,≤0.49 µg/mL
COc1ccccc1CCNCCN(Cc1ccccc1)Cc1ccccc1,,,,,,MIC,,50 µM
CCOC(=O)Nc1cc2c(c(N)n1)N=C(c1ccccc1)C(C)N2,,,,,H37Rv,EC50,,>12.5 µg/mL
CCOC(=O)C1N(S(=O)(=O)c2ccc(C)cc2)C(c2ccccc2)C(c2ccccc2)C1(O)c1ccccc1,BACTEC,,,,H37Rv,MIC bound,,>12.5 µg/mL
CCOC(=O)Nc1nc(NC(=O)OCC)c([N+](=O)[O-])c(NC(C)/C(=N/O)c2ccccc2)c1[N+](=O)[O-],,,,,H37Rv,EC50,,>12.5 µg/mL
Cc1cc(O)c(-c2c(-c3ccccc3C(=O)O)oc3cc(C)c(C)cc23)cc1C,BACTEC,,,,H37Rv,inhibition,12.5 µg/mL,-12%
CC(=O)NC[C@H]1CN(c2ccc(N3CCOCC3)c(F)c2)C(=O)O1,,,,,4R,MIC,,0.5 µg/mL
CC(=O)C1(N=Nc2ccc(S(=O)(=O)NC3NCCS3)cc2)CCOC1=O,BACTEC,,,,H37Rv,inhibition,12.5 µg/mL,15%
Clc1nc(Sc2ccccn2)c2[nH]cnc2n1,,,,,H37Rv,inhibition,6.25 µg/mL,33%
CC[C@H]1OC(=O)[C@H](C)[C@@H](O[C@H]2C[C@@](C)(OC)[C@@H](O)[C@H](C)O2)[C@H](C)[C@@H](O[C@@H]2O[C@H](C)C[C@H](N(C)C)[C@H]2O)[C@](C)(O)C[C@@H](C)C(=O)[C@H](C)[C@@H](O)[C@]1(C)O,,,,,ATCC35838,MBC,,>8 µg/mL
S=C(NCCNC(=S)[S][Sn]([c]1ccccc1)([c]1ccccc1)[c]1ccccc1)[S][Sn]([c]1ccccc1)([c]1ccccc1)[c]1ccccc1,,,,,KM-R,MIC,,0.4 µg/mL
NC(=O)c1cnccn1,,,,,Isolate 11627 SM-resistant,MIC,,>300 µg/mL
O=C1COc2cc(NC(=S)Nc3ccccc3)ccc2N1,BACTEC,,,,H37Rv,MIC bound,,>12.5 µg/mL
CO[C@H]1/C=C/O[C@@]2(C)Oc3c(C)c(O)c4c(O)c(c5c(c4c3C2=O)NC2(CCN(CC(C)C)CC2)N=5)=NC(=O)/C(C)=C\C=C\[C@H](C)[C@H](O)[C@@H](C)[C@@H](O)[C@@H](C)[C@H](OC(C)=O)[C@@H]1C,,,,,Strain 120 121 (Q510H H526Y),MIC,,32 µg/mL
S=C(S)N1CCC(CC2CCN(C(=S)S)CC2)CC1,BACTEC,,,,H37Rv,MIC,,≥12.5 µg/mL
CCOC(=O)Nc1cc2nc(C)c(-c3ccc(O)cc3)nc2c(N)n1,,,,,H37Rv,inhibition,12.5 µg/mL,8%

For reference, 10 entries again:

compound	method	conditions	cells	changes	strain	read-out	tested at	value
COc1cc2c3cc1OCc1c(O)c(OC)cc4c1[C@H](Cc1ccc(cc1)Oc1cc(ccc1O)C[C@H]3N(C)CC2)N(C)CC4	BACTEC				H37Rv	MIC		≥12.8 µg/mL
Cc1ccc(C)c(Sc2ncnc3nc[nH]c23)c1					H37Ra	MIC		>12.8 µg/mL
Clc1ccc(CCNCCNCCc2ccccc2)c(Cl)c1						MIC		50 µM
Cc1ccc(S(=O)(=O)N2CC(O)C(O)C2Cn2cnc3c(N)ncnc32)cc1	resazurin				H37Rv	inhibition	6.25 µg/mL	5%
Cc1ccc(CNCCNCc2ccccc2F)cc1						MIC		50 µM
NC(=S)N/N=C1/C(=O)N(c2ccc(Cl)cc2)C(=O)C1C(=O)Nc1ccc(Cl)cc1	BACTEC				H37Rv	MIC bound		>12.8 µg/mL
CC(NNC(=O)c1ccncc1)c1ccc(Cl)c(Cl)c1					H37Rv (ethambutol-resistant)	MIC		≤0.49 µg/mL
CCOC(=O)Nc1nc(NC(=O)OCC)c([N+](=O)[O-])c(NC(C)/C(=N/O)c2ccccc2)c1[N+](=O)[O-]					H37Rv	EC50		>12.5 µg/mL
NC(=O)c1cnccn1					Isolate 11627 SM-resistant	MIC		>300 µg/mL
Clc1nc(Sc2ccccn2)c2[nH]cnc2n1					H37Rv	inhibition	6.25 µg/mL	33%